Pooled drug test results. Numbers come from NIAID ChemDB, via PubChem.

All rows: tests in culture; agent: Candida albicans; read by: broth dilution; read-out: MIC

Lines come from different laboratories, so protocols vary. An empty or dashed field is not shown.

SMILES	setting	strain or isolate	result
CCCCCCCCCCCCCCCC(=O)NC(CCCCN)C(=O)NC(CCCCN)C(N)=O	-	4900	4 µg/mL
Nn1c(SCC(O)(Cn2cncn2)c2ccc(Cl)cc2Cl)nnc1-c1ccc(O)cc1	-	ATCC 18804	64 µg/mL
CCC(C)CC(C)CCCCCCCCC(=O)N[C@H]1C[C@@H](O)[C@H](NCCN)NC(=O)[C@@H]2[C@@H](O)CCN2C(=O)[C@H]([C@H](O)CCN)NC(=O)[C@H]([C@H](O)[C@@H](O)c2ccc(O)cc2)NC(=O)[C@@H]2C[C@@H](O)CN2C(=O)[C@H]([C@@H](C)O)NC1=O	-	CLY16997	>16 µg/mL
Nc1[nH]c(=O)ncc1F	pH 6	15 isolates	0.125 µg/mL
Cn1ncc2c([nH]c3ccccc32)c1=O	-	-	250 µg/mL
Nn1c(SCC(O)(Cn2cncn2)c2ccc(F)cc2F)nnc1-c1ccc(F)cc1	-	IRFC 192	>64 µg/mL
C[C@@H](c1ncncc1F)[C@](O)(Cn1cncn1)c1ccc(F)cc1F	pH 7	10 isolates	0.03 µg/mL
CC[C@@H]([C@H](C)O)n1ncn(-c2ccc(N3CCN(c4ccc(OC[C@@H]5CO[C@@](Cn6cncn6)(c6ccc(F)cc6F)C5)cc4)CC3)cc2)c1=O	-	8647	0.03 µg/mL
Nn1c(SCC(O)(Cn2cncn2)c2ccc(F)cc2F)nnc1-c1ccc(Cl)cc1	-	ATCC 18804	>64 µg/mL
C[C@@H](c1ncncc1F)[C@](O)(Cn1cncn1)c1ccc(F)cc1F	-	8647	0.015 µg/mL
CC(C)(O)c1cn(-c2ccc(Cl)cc2)nn1	-	URM 4124	256 µg/mL
CCc1ccccc1-n1ncc2c3ccccc3n(C)c2c1=O	-	-	250 µg/mL
Nn1c(SCC(O)(Cn2cncn2)c2ccc(Cl)cc2Cl)nnc1-c1ccccc1	-	ATCC 18804	32 µg/mL
Nc1n[nH]c(=O)c2[nH]c3ccccc3c12	-	-	250 µg/mL
Clc1ccc(COC(Cn2ccnc2)c2ccc(Cl)cc2Cl)c(Cl)c1	pH 4	10 isolates	0.25 µg/mL
Cc1ccc(-c2nnc(SCC(O)(Cn3cncn3)c3ccc(Cl)cc3Cl)n2N)cc1	-	IRFC 192	>64 µg/mL
CCOC(=O)c1cc2ccccc2[nH]1	-	-	250 µg/mL
O=c1c(N2CCOCC2)c(N2CCN(S(=O)(=O)Cc3ccccc3)CC2)cnn1-c1ccccc1	-	C693	100 µg/mL
COC(=O)[C@H]1[C@@H]2C[C@@H](O[C@@H]3O[C@H](C)[C@@H](O)[C@H](N)[C@@H]3O)/C=C/C=C/C=C/C=C/C=C/C=C/C=C/[C@H](C)[C@@H](O)[C@H](C)[C@H](C)OC(=O)C[C@H](O)C[C@H](O)[C@@H](O)CC[C@H](O)C[C@H](O)C[C@](O)(C[C@@H]1O)O2	pH 7	15 isolates	0.25 µg/mL
Cc1ccc(-n2ncc3c4ccccc4n(C)c3c2=O)cc1C	-	-	250 µg/mL

A second listing of 2 rows from above:

{"SMILES": "CCc1ccccc1-n1ncc2c3ccccc3n(C)c2c1=O", "result": "250 µg/mL"}
{"SMILES": "Nc1[nH]c(=O)ncc1F", "setting": "pH 6", "strain or isolate": "15 isolates", "result": "0.125 µg/mL"}